According to EP1161455B1:

Assays:
[1] = target: gp120 (IIIB isolate), free (HIV-1 (IIIB isolate)) (UniProt P03375); assay: ELISA; sCD4-17b captured on anti-His tag MAb; free gp120 added, detected with polyclonal anti-gp120 antiserum and anti-rabbit IgG-HRP; control buffer gave 0.05
[2] = target: gp120 (IIIB isolate) complexed to sCD4 (HIV-1 (IIIB isolate)) (UniProt P03375); assay: ELISA; sCD4-17b captured on anti-CD4 MAb 13B8.2; gp120 (IIIB)/sCD4 complex added, detected with polyclonal anti-gp120 antiserum and anti-rabbit IgG-HRP; control buffer gave 0.05

sCD4-SCFv(17b) bispecific fusion protein
absorbance at 405 nm (absorbance (405 nm)) [1]: 0.46 | absorbance at 405 nm (absorbance (405 nm)) [2]: 0.15
